Measured values published in PMC3325213 (2012).

Biological target: partner chain of the complex shown
Assay: bacterial two-hybrid (B2H), LacZ activity
Conditions: read off a plot

Binder | response (luminescence, arbitrary units) (parent: 2.8) | response (luminescence, arbitrary units) (parent: 3) | response (luminescence, arbitrary units) (parent: 3.3)
unnamed (protein) parent chain 1: MNLKPQTLMVAIQCVAARTRELDAQLQNDDPQNAAELEQLLVGYDLAADDLKNAYEQALGQYSGLPPYDRLIEEPAS parent chain 2: MSYDYEKTSLTLYRAVFKANYDGDVGRYLHPDKELAEAAEVAPLLHPTFDSPNTPGVPARAPDIVAGRDGLYAPDTGGAAVFDRAGVLRRADGDFVIPDGTDIPPDLKVKQDSYNKRLQATHYTIMPAKPMYREVLMGQLDNFVRNAIRRQWEKARGL | 0.95 | 2.6 and 3.4 | 
unnamed (protein) parent chain 1: MNLKPQTLMVAIQCVAARTRELDAQLQNDDPQNAAELEQLLVGYDLAADDLKNAYEQALGQYSGLPPYDRLIEEPAS parent chain 2: MNLKPQTLMVAIQCVAARTRELDAQLQNDDPQNAAELEQLLVGYDLAADDLKNAYEQALGQYSGLPPYDRLIEEPAS |  |  | 3.3 and 3 and 3.2

“And” between values parts separate entries of the source, which are not always exact repeats. Equal values may be shown once.
